Measured values from several laboratories, pooled; numbers as filed in NIAID ChemDB.

Shared fields: whole-cell or culture tests; species: Mycobacterium tuberculosis

Inhibition is in % at the dose shown (toxicity tests: loss of growth or viability). Blank or dashed fields: not listed here. Rows are shuffled and stem from different studies. MIC bound: limit read from a one-dose screen. ECn is the concentration giving n% inhibition of infection, replication or growth. MIC50, MIC90 and the like: level of inhibition, or share of isolates inhibited.

smiles	changes	tested at	strain	method	read-out	result
CC[S+](C)c1ccc(-c2c3nc(c(-c4ccc([S+](C)CC)cc4)c4ccc([nH]4)c(-c4ccc([S+](C)CC)cc4)c4nc(c(-c5ccc([S+](C)CC)cc5)c5ccc2[nH]5)C=C4)C=C3)cc1.[O-][Cl+3]([O-])([O-])[O-].[O-][Cl+3]([O-])([O-])[O-].[O-][Cl+3]([O-])([O-])[O-].[O-][Cl+3]([O-])([O-])[O-]	-	-	H37Rv	BACTEC	MIC bound	>12.5 µg/mL
CCCCC(CC)CN1CN(CC(CC)CCCC)CC(C)(NCCNC/C=C(\C)CCC=C(C)C)C1	-	-	-	-	MIC	50 µM
CC1(C)CC(=O)CC(C)(C)N1	-	-	H37Rv	-	MIC	>100 µg/mL
CC[C@H]1OC(=O)[C@H](C)[C@@H](O[C@H]2C[C@@](C)(OC)[C@@H](O)[C@H](C)O2)[C@H](C)[C@@H](O[C@@H]2O[C@H](C)C[C@H](N(C)C)[C@H]2O)[C@](C)(O)C[C@@H](C)C(=O)[C@H](C)[C@@H](O)[C@]1(C)O	-	-	MDR	-	MIC90	>8 µg/mL
Br.O=C(c1ccccc1)C(Br)CN1CCCCC1	-	-	H37Rv	-	MIC	100 µg/mL
CCOC(=O)Nc1cc(N)c([N+](=O)[O-])c(NC(c2ccccc2)c2ccccc2)n1	-	-	H37Rv	-	EC50	>12.5 µg/mL
CCCCC(CC)CN1CN(CC(CC)CCCC)CC(C)(NCCNC(CC)CC)C1	-	-	-	-	MIC	25 µM
COc1cc(O)c(C(=O)/C=C/c2cc(OC)c(OC)c(OC)c2)c(O)c1	-	12.5 µg/mL	H37Rv	-	inhibition	0%
CCOC(=O)c1c2c3c(c(Nc4ccc(N(C)C)cc4)ccc3n(C)c1=O)C(=O)c1ccccc1-2	-	-	H37Rv	-	MIC	>100 µg/mL
CC(C)=CCC/C(C)=C/CNCCNCCc1ccccc1Cl	-	-	-	-	MIC	50 µM
COC1C(O)=C2C(=O)OC(C)(O)/C=C/C=C/C=C/C=C\C(c3ccccc3)NC(=O)/C=C/C=C/C=C/C=C/C2(C)C1O	-	-	H37Rv	BACTEC	MIC	≥12.5 µg/mL
CC(CNC[C@@H]1CC[C@H]2C[C@@H]1C2(C)C)N[C@H]1C[C@H]2CC[C@]1(C)C2(C)C	-	-	-	-	MIC	50 µM
Nc1ccn([C@@H]2O[C@H](C(O[C@@H]3O[C@H](CO)[C@@H](O)[C@H](N)[C@H]3O)[C@@H](O)[C@@H](O)[C@@H](O)[C@@H](O)CO)[C@@H](N)[C@H](O)[C@H]2O)c(=O)n1	-	-	TAC-R	-	MIC	12.5 µg/mL
C[N+](C)(C)CCO	-	-	H37Rv	-	MIC	>100 µg/mL
O=C1CC(c2ccccc2)Oc2ccc(I)cc21	-	12.5 µg/mL	-	-	inhibition	27%
NC1CCN(c2nc3c(cc2F)c(=O)c(C(=O)O)cn3-c2ccc(F)cc2F)C1	-	-	H37Rv	-	MIC	8 µg/mL
Fc1ccccc1CCNCCNCC(c1ccccc1)c1ccccc1	-	-	-	-	MIC	50 µM
CO[C@H]1/C=C/O[C@@]2(C)Oc3c(C)c(O)c4c(O)c(c(/C=N/N5CCN(C/C=C/c6ccccc6)CC5)c(O)c4c3C2=O)NC(=O)/C(C)=C\C=C\[C@H](C)[C@H](O)[C@@H](C)[C@@H](O)[C@@H](C)[C@H](OC(C)=O)[C@@H]1C	-	-	2227 (rifampin-resistant)	-	MIC	0.1 µg/mL
COc1ccccc1OP(=O)(Oc1ccccc1OC)Oc1ccccc1OC	-	-	H37Rv	-	MIC	>100 µg/mL
C[C@H]1COc2c(N3CCN(C)CC3)c(F)cc3c(=O)c(C(=O)O)cn1c23	-	-	ATCC 35822	-	MIC	0.25 µg/mL
CC[Si](CC)(OCCCc1ccncc1)OCCCc1ccncc1	-	-	H37Rv	-	MIC	50 µg/mL
Cc1ccc(C)c2c(N=Nc3ccccc3[N+](=O)[O-])c(O)[nH]c12	-	6.25 µg/mL	H37Rv	resazurin	inhibition	-12%
COc1ccc(C2CC(=O)c3cc(C(=O)O)ccc3O2)cc1	-	12.5 µg/mL	-	-	inhibition	0%
CCOC(=O)Nc1cc(N[C@@H](C)[C@H](C)c2ccccc2)c([N+](=O)[O-])c(N)n1	-	-	H37Rv	-	EC50	>12.5 µg/mL
CO[C@H]1/C=C/O[C@@]2(C)Oc3c(C)c(O)c4c(O)c(c5c(c4c3C2=O)NC2(CCN(CC(C)C)CC2)N=5)=NC(=O)/C(C)=C\C=C\[C@H](C)[C@H](O)[C@@H](C)[C@@H](O)[C@@H](C)[C@H](OC(C)=O)[C@@H]1C	-	-	3064 (rifampin-sensitive)	-	MIC	0.025 µg/mL
O=C1C=CC(=Nc2ccc(O)c(Cl)c2)C=C1	-	-	H37Rv	BACTEC	MIC bound	>12.5 µg/mL
O=C1CC(c2ccccc2O)Oc2ccccc21	-	-	H37Rv	-	EC50	>12.5 µg/mL
Nc1c(S(=O)(=O)O)cc(Nc2cccc(CO)c2)c2c1C(=O)c1ccccc1C2=O	-	12.5 µg/mL	H37Rv	BACTEC	inhibition	4%
COc1ccc(C2Oc3cc(F)ccc3C(=O)C2OC(C)=O)cc1	-	12.5 µg/mL	-	-	inhibition	50%
C[C@@H]1CN(c2c(F)c(N)c3c(=O)c(C(=O)O)cn(C4CC4)c3c2F)C[C@H](C)N1	-	-	DRUG-SUS	-	MBC90	0.125 µg/mL
O=C(O)c1ccc([As](=O)(O)O)cc1	-	-	H37Rv	-	MIC	100 µg/mL
CC(=O)C(=Cc1ccc(O[C@@H]2O[C@H](CO)[C@@H](O)[C@H](O)[C@H]2O)cc1)C(C)=O	-	6.25 µg/mL	H37Rv	resazurin	inhibition	2%
Cc1ccc(CSc2ncnc3nc[nH]c23)cc1	-	6.25 µg/mL	H37Rv	-	inhibition	22%
CC(NCCNC[C@@H]1CC[C@H]2C[C@@H]1C2(C)C)C12CC3CC(CC(C3)C1)C2	-	-	-	-	MIC	50 µM
CCOC(=O)C1C(C)NC(C)C(C(=O)OCC)C1O.Cl	-	-	H37Rv	-	MIC	>100 µg/mL
Clc1ccc(CCNCCNCc2ccc3c(c2)OCO3)c(Cl)c1	-	-	-	-	MIC	50 µM
c1ccc(C(CNCCNCC(c2ccccc2)c2ccccc2)c2ccccc2)cc1	-	-	-	-	MIC	37.5 µM
CCCCCCCCS	-	-	H37Rv	-	MIC	>100 µg/mL
COc1ccc(Sc2ncnc3nc[nH]c23)c(OC)c1	-	-	H37Rv	-	MIC90	>6.25 µg/mL
COC(=O)C1C(=O)C2OC1C1OC(C)(C)OC21	-	-	H37Rv	BACTEC	MIC bound	>12.5 µg/mL
COc1ccc(CNCCNC(c2ccccc2)c2ccccc2)c(OC)c1	-	-	-	-	MIC	50 µM
NC[C@H]1O[C@H](O[C@H]2[C@H](O)[C@@H](O[C@H]3O[C@H](CO)[C@@H](O)[C@H](N)[C@H]3O)[C@H](N)C[C@@H]2N)[C@H](O)[C@@H](O)[C@@H]1O	-	-	H37Rv	-	MIC	>128 µg/mL
CCOC(=O)Nc1cc(N(C)C)c([N+](=O)[O-])c(N)n1	-	-	H37Rv	-	EC50	>12.5 µg/mL
COc1ccc2c(c1)CCCC2=O	-	-	H37Rv	-	MIC	>100 µg/mL
O=C(O)c1cc(=O)c2cccc(O)c2[nH]1	-	-	H37Rv	BACTEC	MIC bound	>12.5 µg/mL
O=C(/C=C/c1ccc([O-])c(C[O-])c1)c1cccc(O)c1	-	-	-	-	EC50	<12.5 µg/mL
Nc1ccc(C(=O)N/C(=C/c2cccc([N+](=O)[O-])c2)c2nc3ccc(Cl)cc3[nH]2)cc1	-	-	H37Rv	resazurin	MIC bound	>6.25 µg/mL
NCCCCC(Nc1ccc([N+](=O)[O-])cc1[N+](=O)[O-])C(=O)O	-	-	H37Rv	-	MIC	100 µg/mL
O=c1nc(SCc2ccc(Cl)cc2[N+](=O)[O-])c2[nH]cnc2[nH]1	-	-	H37Ra	-	MIC	>12.8 µg/mL
O=C1c2ccccc2OC(c2cccc(Cl)c2)C1O	-	-	H37Rv	-	EC50	<12.5 µg/mL
CC(=O)NC[C@H]1CN(c2ccc(N3CCOCC3)c(F)c2)C(=O)O1	INH RIF resistant	-	Clinical isolate 71 A	resazurin	MIC	0.25 µg/mL
Cc1c(CSc2nc(=O)[nH]c3nc[nH]c23)cccc1[N+](=O)[O-]	-	-	H37Ra	-	MIC	8 µg/mL
Nc1nc(N)c(N)c(=O)[nH]1	-	-	H37Rv	-	MIC	>100 µg/mL
O=C(O)c1ccc(C(=O)O)nn1	-	12.5 µg/mL	H37Rv	BACTEC	inhibition	16%
CCCCCCCCCCCNCCNC1CCCc2ccccc21	-	-	-	-	MIC	25 µM
O=C(c1ccccc1)N1CCCC(Br)(Br)C1=O	-	-	H37Rv	-	MIC	>100 µg/mL
CCCCC(CC)CN1CN(CC(CC)CCCC)CC(C)(NCCN[C@@H]2C[C@@H]3C[C@H]([C@H]2C)C3(C)C)C1	-	-	-	-	MIC	50 µM
Nc1ncc(C(=O)O)c2ccccc12	-	-	H37Rv	-	MIC	>100 µg/mL
COc1ccc(Sc2nc(Cl)nc3nc[nH]c23)cc1OC	-	6.25 µg/mL	H37Rv	-	inhibition	31%
CCCCCCCCCCCCCCCCC(C(=O)OCC)C(=O)OCC	-	-	H37Rv	-	MIC	>100 µg/mL
CC(=O)N1C(=O)CC23c4ccccc4C(=O)N2CCCN13	-	12.8 µg/mL	H37Rv	BACTEC	inhibition	2%
CCCCCCCCCCCNCCN[C@H](CO)Cc1ccc(Cl)cc1	-	-	-	-	MIC	25 µM
O=C1c2ccccc2-c2cccc3cccc1c23	-	-	H37Rv	-	MIC	50 µg/mL
CCC(C)[C@]1(O)O[C@@H]2C[C@]3(C)OC(=CC3=O)/C(C)=C\[C@@H]3OC(=O)[C@]1(C)[C@@H]32	-	-	H37Rv	BACTEC	MIC	≥12.5 µg/mL
CO[C@H]1/C=C/O[C@@]2(C)Oc3c(C)c(O)c4c(O)c(c5c(c4c3C2=O)NC2(CCN(CC(C)C)CC2)N=5)=NC(=O)/C(C)=C\C=C\[C@H](C)[C@H](O)[C@@H](C)[C@@H](O)[C@@H](C)[C@H](OC(C)=O)[C@@H]1C	-	-	Strain 75	-	MIC	1 µg/mL
COC[C@H](NCCNC[C@]1(C)CCC[C@]2(C)c3ccc(C(C)C)cc3CC[C@@H]12)[C@@H](O)c1ccccc1	-	-	-	-	MIC	50 µM
CC1=CCS(=O)(=O)C1C	-	-	H37Rv	-	MIC	>100 µg/mL
CC[C@H]1OC(=O)[C@H](C)[C@@H](O[C@H]2C[C@@](C)(OC)[C@@H](O)[C@H](C)O2)[C@H](C)[C@@H](O[C@@H]2O[C@H](C)C[C@H](N(C)C)[C@H]2O)[C@](C)(O)C[C@@H](C)CN(C)[C@H](C)[C@@H](O)[C@]1(C)O	-	-	ATCC 35823	-	MBC	>8 µg/mL
O=C1CC(N2C(=O)c3ccccc3C2=O)C(=O)O1	-	12.5 µg/mL	H37Rv	BACTEC	inhibition	6%
Nc1cccc(/C=C/C(=O)c2ccccc2O)c1	-	12.5 µg/mL	-	-	inhibition	11%
O=c1[nH][nH]c(=O)c2c1nc(SCc1ccccc1Cl)n2Cc1ccccc1	-	-	H37Rv	BACTEC	MIC bound	>12.5 µg/mL
CCC(C(=O)C(C)CN(C)C)(c1ccccc1)c1ccccc1.Cl	-	-	H37Rv	-	MIC	25 µg/mL
S=C(S)NNc1ccccc1	-	-	H37Rv	-	MIC	>12.5 µg/mL
COC(=O)CCCCC(=O)Nc1cccc(I)c1	-	-	H37Rv	-	MIC	25 µg/mL
Cc1cc(=O)[nH]c2cc3oc4ccccc4c3cc12	-	-	H37Rv	BACTEC	MIC bound	>12.5 µg/mL
CCOC(=O)Nc1cc(NC/C(CCc2ccccc2)=N\O)c([N+](=O)[O-])c(N)n1	-	-	H37Rv	-	EC50	>12.5 µg/mL
COc1cc(OC)c2c(=O)cc(-c3ccncc3)oc2c1	-	12.5 µg/mL	H37Rv	BACTEC	inhibition	10%
Clc1nc(Sc2ccccn2)c2[nH]cnc2n1	-	6.25 µg/mL	H37Rv	-	inhibition	33%
COCCCn1c(-c2cc(OC)c(OC)c(OC)c2)nn2c(=O)c3ccccc3nc2c1=O	-	-	H37Rv	BACTEC	MIC bound	>12.5 µg/mL
N#Cc1ccc(N)cc1	-	-	H37Rv	-	MIC	100 µg/mL
[N-]=[N+]=NC1OC(=O)C(Cl)=C1N=P(c1ccccc1)(c1ccccc1)c1ccccc1	-	-	H37Rv	BACTEC	MIC bound	>12.5 µg/mL
CCOC(=O)Nc1cc(NC(c2ccccc2)c2ccccc2)c([N+](=O)[O-])c(NC/C(C)=N/NC(=O)O)n1	-	12.5 µg/mL	H37Rv	-	inhibition	0%